Literature values in article PMC5086636 (Toxins, 2016).

Protein sequences, listed by entry. Tags and fused reporters are not part of them. Residues count along the entry.
UniProt P29101, 37-86: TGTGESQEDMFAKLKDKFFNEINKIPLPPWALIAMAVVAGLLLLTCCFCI

Target: Synaptotagmin-II 37-86 (UniProt P29101)
Details: cited from earlier work

BoNT/B 1241-1277 (from UniProt P10844)
Kd: 0.299 µM
